Compound potency records, mixed from different reports. Data source: NIAID ChemDB in PubChem.

Shared fields: tests in culture; organism: HIV-2; read by: RT activity; endpoint: EC50

Conditions beyond the fields shown may differ between rows. ECn is the concentration giving n% inhibition of infection, replication or growth.

Cc1cn([C@H]2C[C@H](N=[N+]=[N-])[C@@H](CO)O2)c(=O)[nH]c1=O ; cells: PBMC ; strain or isolate: ROD ; value: <0.03 µM
Nc1nc(N)c2ncn([C@H]3C=C[C@@H](OCP(=O)(O)O)O3)c2n1 ; cells: MT-4 ; strain or isolate: ROD ; value: 33 µg/mL
CCOCn1c([Se]c2ccccc2)c(C)c(=O)[nH]c1=O ; cells: PBMC ; strain or isolate: ROD ; value: 27.1 µM
Nc1nc(Cl)nc2c1ncn2[C@H]1C=C[C@@H](OCP(=O)(O)O)O1 ; cells: MT-4 ; strain or isolate: ROD ; value: 89.2 µg/mL
Cc1cn([C@H]2C[C@H](N=[N+]=[N-])[C@@H](CO)O2)c(=O)[nH]c1=O ; cells: PBMC ; strain or isolate: ROD-2 ; value: 0.004 µM
CCc1nc2sccn2c1C(=O)c1ccco1 ; cells: PBMC ; strain or isolate: 194 ; value: >100 µM
O=C(O)C(=O)CC(=O)c1cc(OCc2ccccc2)cc(OCc2ccccc2)c1 ; cells: PBMC ; strain or isolate: D194 ; value: 8.6 µM
Cc1cn([C@H]2C[C@H](N=[N+]=[N-])[C@@H](CO)O2)c(=O)[nH]c1=O ; cells: PBMC ; strain or isolate: MS ; value: <2.5 µg/mL
COc1nc(Cl)nc2c1ncn2[C@H]1C=C[C@@H](OCP(=O)(O)O)O1 ; cells: MT-4 ; strain or isolate: ROD ; value: >125 µg/mL
CCOCn1c([Se]c2ccccc2)c(F)c(=O)[nH]c1=O ; cells: PBMC ; strain or isolate: ROD ; value: 8.5 µM
CCc1nc2ccccn2c1C(=O)c1ccco1 ; cells: PBMC ; strain or isolate: ROD ; value: >100 µM
Cc1cn([C@H]2C=C[C@@H](COC(=O)CNC(=O)C(=O)/C=C(\O)c3cccn3Cc3ccc(F)cc3)O2)c(=O)[nH]c1=O ; cells: PBMC ; strain or isolate: D194 ; value: 2.9 µM
Cc1cn([C@H]2C[C@H](N=[N+]=[N-])[C@@H](CO)O2)c(=O)nc1N ; cells: PBMC ; strain or isolate: ROD ; value: 0.016 µM
COc1nc(N)c2ncn([C@H]3C=C[C@@H](OCP(=O)(O)O)O3)c2n1 ; cells: MT-4 ; strain or isolate: ROD ; value: 75.4 µg/mL
Cc1cn([C@H]2C=C[C@@H](COC(=O)CCNC(=O)C(=O)/C=C(\O)c3cc(OCc4ccccc4)cc(OCc4ccccc4)c3)O2)c(=O)[nH]c1=O ; cells: PBMC ; strain or isolate: D194 ; value: 5.9 µM
CCc1nc2ccccn2c1C(=O)c1cccs1 ; cells: PBMC ; strain or isolate: 194 ; value: >100 µM
Cc1cn([C@H]2C[C@H](N=[N+]=[N-])[C@@H](CO)O2)c(=O)[nH]c1=O ; cells: CEM + CEM-SS ; strain or isolate: ROD ; value: 0.003 µM